Measured values from several laboratories, pooled; numbers as filed in NIAID ChemDB.

Shared fields: tests in culture; species: Rhinovirus; endpoint: inhibition

Lines come from different laboratories, so protocols vary. Percent inhibition refers to the dose given; in toxicity tests it is the harm to the cells. An empty or dashed field is not shown. Two numbers with a dash give a range or band.

| smiles | strain or isolate | cells | dose | read by | result |
|---|---|---|---|---|---|
| COc1cc(-c2ccc(N=Nc3ccc4c(S(=O)(=O)O)cc(S(=O)(=O)O)c(N)c4c3O)c(OC)c2)ccc1N=Nc1ccc2c(S(=O)(=O)O)cc(S(=O)(=O)O)c(N)c2c1O | - | Human amnion AV3 cells | 50 µg/mL | cytopathic effect | 0% |
| CN(C)c1nc(C(F)(F)F)nc2c1ncn2Cc1ccc(Cl)cc1Cl | Serotype 15 | M-HELA | 8 µM | plaque count | 10% |
| Cc1cccc(C2=CCN(c3ccc(Cl)nn3)CC2)c1 | 17 serotypes | - | 5 µg/mL | - | 71% |
| N#Cc1cc([N+](=O)[O-])ccc1Oc1ccc(Cl)c(Cl)c1 | TYPE 1A | VERO | 12.5 µg/mL | - | 87% |
| O=S(=O)([O-])c1ccc2c(O)cc(S(=O)(=O)[O-])cc2c1 | - | Human amnion AV3 cells | 10 µg/mL | cytopathic effect | 14% |
| Cc1ccccc1Cn1cnc2c(N(C)C)nc(C(F)(F)F)nc21 | Serotype 21 | M-HELA | 8 µM | plaque count | 18% |
| Cc1cc(CCCCCCCOc2ccc(C3=NCCO3)cc2)on1 | 17 serotypes | - | 0.658 µg/mL | - | 18% |
| Cc1ccc(Cn2cnc3c(N(C)C)nc(C(F)(F)F)nc32)cc1 | TYPE 21 | M-HELA | 8 µM | plaque count | 40% |
| Nc1ccc(S(=O)(=O)[O-])c2c(S(=O)(=O)[O-])ccc(O)c12 | - | Human amnion AV3 cells | 5 µg/mL | cytopathic effect | 0% |
| COc1cc(C(=O)Oc2c(-c3ccc(Cl)cc3)oc3ccccc3c2=O)ccc1O | Serotype 14 | HeLa | 6.25 µM | plaque count | 36% |
| Cc1cccc(C2=CCN(c3ccc(Br)nn3)CC2)c1 | 100 serotypes | - | 0.338 µg/mL | - | 53% |
| Nc1ccc2c(O)cc(S(=O)(=O)[O-])cc2c1S(=O)(=O)[O-] | - | Human amnion AV3 cells | 5 µg/mL | cytopathic effect | 18% |
| O=C(O)Cc1csc(/N=C2\SC[C@@H]3Cc4ccccc4CN23)n1 | Serotype 43 | MRC-5 | 1.5 µg/mL | cytopathic effect | 80–100% |
| CS(=O)(=O)c1ccc2c(c1)CCC(c1ccc(Cl)c(Cl)c1)O2 | 17 serotypes | - | 29.5 µg/mL | - | 71% |
| CN(C)c1nc(C(F)(F)F)nc2c1ncn2Cc1ccc([N+](=O)[O-])cc1 | Serotype 15 | M-HELA | 8 µM | plaque count | 31% |
| FC(F)(F)c1cccc(C2CCN(c3ccc(Cl)nn3)C2)c1 | 100 serotypes | - | 0.008 µg/mL | - | 18% |
| CN(C)c1nc(C(F)(F)F)nc2c1ncn2Cc1ccccc1Cl | Serotype 13 | M-HELA | 8 µM | plaque count | 24% |
| O=S(=O)(O)c1cccc2c(O)cccc12 | - | Human amnion AV3 cells | 50 µg/mL | cytopathic effect | 0% |
| COc1ccc(N2CCN(c3cccc(C)c3)CC2)nn1 | 17 serotypes | - | 11.7 µg/mL | - | 71% |

The first 2 rows once more:

{"smiles": "COc1cc(-c2ccc(N=Nc3ccc4c(S(=O)(=O)O)cc(S(=O)(=O)O)c(N)c4c3O)c(OC)c2)ccc1N=Nc1ccc2c(S(=O)(=O)O)cc(S(=O)(=O)O)c(N)c2c1O", "cells": "Human amnion AV3 cells", "dose": "50 µg/mL", "read by": "cytopathic effect", "result": "0%"}
{"smiles": "CN(C)c1nc(C(F)(F)F)nc2c1ncn2Cc1ccc(Cl)cc1Cl", "strain or isolate": "Serotype 15", "cells": "M-HELA", "dose": "8 µM", "read by": "plaque count", "result": "10%"}